Measured values from several laboratories, pooled; numbers as filed in NIAID ChemDB.

Shared fields: tests on isolated targets; agent: HIV-1; protein: Reverse transcriptase; read by: RT activity / absorbance; read-out: IC50

Lines come from different laboratories, so protocols vary. ICn is the concentration giving n% inhibition.

structure,result
O=C(CC1(O)C(=O)Nc2ccc(Cl)cc21)c1cccc(Br)c1,62.14 µM
COc1c(O)cc2oc(-c3ccc(O)cc3)cc(=O)c2c1O,345 µM
CC1(C)O[C@@H]2[C@H](O1)[C@H]1Sc3ccccc3C(=O)N1[C@H]1Cn3nncc3CO[C@@H]21,4.02 µM
O=C1CN(C(=O)c2cc(-c3cc(F)cc(Cl)c3)n(-c3ccc(F)c(Cl)c3)n2)CN1,0.038 µM
Cc1nnn2c1CO[C@H]1[C@@H]3OC(C)(C)O[C@@H]3[C@H]3Sc4ccccc4C(=O)N3[C@H]1C2,4.1 µM
O=C(CC1(O)C(=O)Nc2ccccc21)c1ccccc1Cl,69.68 µM
Cc1nnn2c1CO[C@H]1[C@@H]3OC(C)(C)O[C@@H]3[C@@H]3Sc4ccccc4C(=O)N3[C@H]1C2,3.14 µM
COc1ccccc1C(=O)CC1(O)C(=O)Nc2ccc(Br)cc21,0.82 µM
O=C1c2ccccc2S[C@@H]2[C@@H](O)[C@@H](O)[C@H](O)[C@H](CO)N12,1.32 µM
COc1ccc(C(=O)CC2(O)C(=O)Nc3ccc(Cl)cc32)cc1OC,73.08 µM
COC(=O)C1(O)C[C@@H](OC(=O)/C=C/c2ccc(O)c(O)c2)C(O)[C@H](OC(=O)/C=C/c2ccc(O)c(O)c2)C1,250 µM
CCCCCCCCCCCCCCCCCCCCCCC(=O)O[C@@H]1[C@@H](C)[C@@]2(O)[C@@H](C=C(COC(C)=O)C[C@]3(O)C(=O)C(C)=C[C@@H]23)[C@@H]2C(C)(C)[C@]12O,>67.5 µM
CO/N=C(\F)c1cc(/C(=C\CCCc2nnc(C)o2)c2cc(C)c3oc(=O)n(C)c3c2)cc(C)c1OC,0.47 µM
COc1ccccc1C(=O)CC1(O)C(=O)Nc2ccc(Cl)cc21,0.27 µM
O=C(/C=C/c1ccc(O)c(O)c1)O[C@@H]1[C@H](O)C[C@@](O)(C(=O)O)C[C@H]1OC(=O)/C=C/c1ccc(O)c(O)c1,240 µM